Results of unrelated studies side by side (data: NIAID ChemDB).

All rows: growth or infection tests

ECn: concentration that inhibits the pathogen or its effect by n%.

structure,agent,strain or isolate,cells,read by,measure,dose,value
N#Cc1ncn(CCc2ccc(Cl)cc2Cl)c1/N=c1\ssnc1Cl,Saccharomyces cerevisiae,ATCC26785,-,-,MIC,-,25 µg/mL
O=C(O)P(=O)(O)O,Simian rotavirus,SA-11,MA-104,cytopathic effect,EC50,-,10–1000 µM
O=c1[nH]c(=O)n(COCCO)cc1Br,Vesicular stomatitis virus,-,PRK,cytopathic effect,EC50,-,>400 µg/mL
CO[C@H]([C@H](C)[C@H](/C=C/c1ccccc1)OC)[C@@H](C)/C=C/C(C)=C/C(N)=O,Saccharomyces cerevisiae,-,-,-,MIC,-,100 µg/mL
CCC(=O)C(CCCCCCOc1ccc(OC)cc1Cl)C(=O)CC,Mouse cytomegalovirus,SMITH,MEF,plaque count,inhibition,4 µg/mL,70%
CCCCN1C(=O)c2ccccc2NC1c1ccc(F)cc1,Plasmodium berghei,ANKA,-,luciferase,EC50,-,>20 µM
C=CCc1ccc(O)c(OC)c1,Candida tropicalis,2858,-,turbidity,MIC90,-,500 µg/mL
Oc1ccccc1N=Cc1ccccc1,Cryptococcus neoformans,96806,-,broth dilution,MIC,-,5.7 µg/mL
N#Cc1ccc(CSc2ncnc3c2ncn3[C@@H]2O[C@H](CO)[C@@H](O)[C@H]2O)cc1,Toxoplasma gondii,RH adenosine kinase-deficient,-,-,inhibition,50 µM,0%
Cc1c(NC(=O)c2cccc([N+](=O)[O-])c2)ccc2nc(NC(C)(C)C(=O)N(C)CCc3ccccn3)oc(=O)c12,Herpes simplex virus 1,-,VERO,plaque count,EC90,-,>12.5 µM
CCN(CC)CCN1C(=O)c2ccccc2NC1c1ccc2c(c1)OCO2,Plasmodium berghei,ANKA,-,luciferase,EC50,-,2.3 µM
CN1CCc2c(sc(/N=c3\ssnc3Cl)c2C#N)C1,Saccharomyces cerevisiae,ATCC26785,-,-,MIC,-,100 µg/mL
Cc1cn([C@@H]2O[C@H](CO)[C@@H](O)[C@@H]2O)c(=O)[nH]c1=O,Varicella zoster virus,YS,HELF,plaque count,inhibition,1 µg/mL,100%
CC(C)(C)n1ncc(C#N)c1/N=c1\ssnc1Cl,Saccharomyces cerevisiae,ATCC26785,-,-,MIC,-,25 µg/mL
CN[C@H]1CC[C@@H](c2ccc(Cl)c(Cl)c2)c2ccccc21,Cryptococcus neoformans,92C,-,broth dilution,MIC90,-,4 µg/mL
O=c1cc(O)ccn1COCCO,Vesicular stomatitis virus,-,PRK,cytopathic effect,EC50,-,>400 µg/mL
O=c1[nH]c(=O)n([C@@H]2O[C@H](CO)[C@@H](O)[C@@H]2O)cc1/C=C/Br,Varicella zoster virus,Asahikawa,HELF,plaque count,inhibition,0.0001 µg/mL,22%
CCOC(=O)c1c(C)nc(NCCCCNc2ccnc3cc(Cl)ccc23)nc1-c1ccccc1[N+](=O)[O-],Cryptococcus gattii,1913 ER,-,-,MIC99,-,8 µg/mL
Nc1nc2c(ncn2COC(CO)CO)c(=O)[nH]1,Human cytomegalovirus,Recombinant C4 (D341E),-,virus yield,EC95,-,3.7 µM
CC1(C(=O)O)CCC2(C)CCC3(C)C(=CC(=O)C4C5(C)CCC(OC(=O)C6CCCCC6C(=O)O)C(C)(C)C5CCC43C)C2C1,Adenovirus,TYPE 5,-,virus yield,EC99,-,300 µM
Nc1nc2c(ncn2COCCO)c(=O)[nH]1,Varicella zoster virus,Asahikawa,HELF,plaque count,inhibition,10 µg/mL,100%
COc1c(N2CCNC(C)C2)c(F)cc2c(=O)c(C(=O)O)cn(C3CC3)c12,Streptococcus pyogenes,41 strains,-,-,MIC90,-,0.5 µg/mL
Cn1cc(C(=O)NCc2ccc(Cl)cc2)c(=O)c2cc(CN3CCOCC3)ccc21,Herpes simplex virus 2,13077 (ACV-resistant),HFF,plaque count,EC50,-,2.2 µM
Cc1c(NC(=O)OC(C)(C)C)ccc2nc(N(CCc3ccccc3)C(=O)NCc3cccnc3)oc(=O)c12,Herpes simplex virus 1,-,VERO,plaque count,EC90,-,23.8 µM
N=C(N)c1ncn([C@@H]2O[C@H](CO)[C@@H](O)[C@H]2O)n1,West Nile virus,-,-,-,EC50,-,>100 µM
Cc1cc(C(=O)Nc2ccc3nc(NC(C)(C)C(=O)N(C)CCc4ccccn4)oc(=O)c3c2C)c(C)o1,Herpes simplex virus 1,-,VERO,plaque count,EC90,-,>12.5 µM
Cc1ccccc1Cn1nnc(C#N)c1/N=c1\ssnc1Cl,Saccharomyces cerevisiae,ATCC26785,-,-,MIC,-,25 µg/mL
CC(C)CC(O)C(=O)O,Aspergillus fumigatus,MRCM 32552,-,broth dilution / visual reading,MFC100,-,18000 µg/mL
Cc1c(NC(=O)OC(C)(C)C)ccc2nc(N(CCC(C)C)C(=O)N(C)CCc3cccnc3)oc(=O)c12,Herpes simplex virus 1,-,VERO,plaque count,EC90,-,6.1 µM
O=C(CCn1ccnc1)c1cccc2ccccc12,Candida guilliermondii,RTCC1248,-,broth dilution,MIC,-,64 µg/mL
C=C(C)C1COc2cc(OC)c3c(c2C1)OC(c1ccccc1)=CC3OC,Dengue virus,Type 2/Mexican isolate,LLC-MK2,plaque count,inhibition,12 µM,36.4%
O=C(O)c1cc(-n2cccc2)ccc1Cl,HIV-1,93TH051 X4R5 CLADE E,PBMC + MT-2,p24,EC90,-,91.04 µM
Cn1nc(Cc2ccc(Cl)cc2)c2ccccc2c1=O,Cryptococcus neoformans,Clinical isolate (IM 983040),-,broth dilution,MIC50,-,3.9 µg/mL
CC(C)C[C@@H]1NC(=O)CNC(=O)[C@@H]2CCCN2C(=O)[C@H](CC(N)=O)NC(=O)[C@H](C)NC(=O)[C@H](Cc2ccc(O)cc2)NC(=O)[C@H]2CCCC2C1=O,Pseudomonas aeruginosa,-,-,-,zone,6 µg/mL,28 mm
OC(CCn1ccnc1)c1ccc(-c2ccccc2)cc1,Candida kefyr,RTCC 1074,-,broth dilution,MIC,-,32 µg/mL
Oc1ccccc1C=Nc1ccccc1O,Cryptococcus gattii,23/10993,-,-,MIC99,-,11.3 µg/mL
CO/N=C1\CN(c2nc3c(cc2F)c(=O)c(C(=O)O)cn3C2CC2)CC1CN,Streptococcus pneumoniae,21 isolates ciprofloxacin-resistant,-,-,MIC50,-,0.25 µg/mL
CCN(CC)CCN1C(=O)c2ccccc2NC1c1ccc(Cl)cc1Cl,Plasmodium berghei,ANKA,-,luciferase,EC50,-,>20 µM
CO[C@H]1/C=C/O[C@@]2(C)Oc3c(C)c(O)c4c(O)c(c(/C=N/N5CCN(C6CCCC6)CC5)c(O)c4c3C2=O)NC(=O)/C(C)=C\C=C\[C@H](C)[C@H](O)[C@@H](C)[C@@H](O)[C@@H](C)[C@H](OC(C)=O)[C@@H]1C,Mycobacterium avium intracellulare,109,-,-,MIC,-,0.25 µg/mL
CC(C)C[C@H](N)C(=O)O,Aspergillus fumigatus,MRCM 32552,-,broth dilution,MFC100,-,>18000 µg/mL
CC(=O)OCCOCn1cnc2c(Cl)nc(Cl)nc21,Vesicular stomatitis virus,-,PRK,cytopathic effect,EC50,-,>10 µg/mL
OC(CCn1ccnc1)c1cccc(C(O)c2ccc(Cl)c(Cl)c2)c1,Candida guilliermondii,RTCC1248,-,broth dilution,MIC,-,>64 µg/mL
CCN(CC)CCN1C(=O)c2ccccc2NC1c1cc(OC)c(OC)c(OC)c1,Plasmodium berghei,ANKA,-,luciferase,EC50,-,4.1 µM
N#Cc1cnn(Cc2ccccc2)c1/N=c1\ssnc1Cl,Saccharomyces cerevisiae,ATCC26785,-,-,MIC,-,50 µg/mL
OC[C@H]1O[C@@H](n2cnc3c(SCc4ccc(OC(F)(F)F)cc4)ncnc32)[C@H](O)[C@@H]1O,Toxoplasma gondii,RH adenosine kinase-deficient,-,-,inhibition,50 µM,4.9%
CCOC(=O)c1c(C)nc(NCCCCNc2ccnc3cc(Cl)ccc23)nc1-c1ccccc1,Cryptococcus neoformans,WP,-,-,MIC99,-,8 µg/mL
Cc1c(NC(=O)OC(C)(C)C)ccc2nc(N(CCCc3ccccc3)C(=O)NCc3cccnc3)oc(=O)c12,Herpes simplex virus 1,-,VERO,plaque count,EC90,-,>25 µM
OC(CCn1ccnc1)c1ccc(Br)cc1,Candida kefyr,RTCC 1074,-,broth dilution,MIC,-,>64 µg/mL
CC(N)C12CC3CC(CC(C3)C1)C2,Influenza A virus,Influenza A H3N2 isolate 152,MDCK,ELISA,EC50,-,14.3 µg/mL
Cc1c(NC(=O)OC(C)(C)C)ccc2nc(NCC(Cc3ccccc3)C(=O)N(C)c3ccccn3)oc(=O)c12,Herpes simplex virus 1,-,VERO,plaque count,EC90,-,10.7 µM
Cc1ccc(C(O)c2cccc(C(O)CCn3ccnc3)c2)cc1,Candida kefyr,RTCC 1019,-,broth dilution,MIC,-,16 µg/mL
C[C@@]1(O)[C@H](O)[C@@H](COP(=O)(O)OP(=O)(O)OP(=O)(O)O)O[C@H]1n1ccc2c(N)ncnc21,Dengue virus,TYPE 2,VERO,neutral red,EC50,-,15 µM
Nc1ccn(C[C@@H](CO)OCP(=O)(O)O)c(=O)n1,Simian varicella-zoster virus,-,VERO,plaque count,EC50,-,11 µM
CCc1nc(N)nc(N)c1-c1ccc(Cl)cc1,Mycobacterium avium complex,DW29,-,-,MIC,-,16 µg/mL
O=C(CCn1ccnc1)c1cccc(C(O)c2ccc(Cl)c(Cl)c2)c1,Candida kefyr,RTCC 1074,-,broth dilution,MIC,-,16 µg/mL
O=C(NCc1ccc(Cl)cc1)c1cn2c3c(cc(CN4CCOCC4)cc3c1=O)OC(c1cccnc1)C2,Herpes simplex virus 2,Jensen (wild type),HFF,plaque count,EC50,-,12.8 µM
Cc1cn([C@@H]2O[C@H](CO)[C@@H](O)[C@@H]2F)c(=O)nc1N,Varicella zoster virus,KANNO,HELF,plaque count,inhibition,0.001 µg/mL,0%
CCOC(=O)c1c(C)nc(OCCCNc2ccnc3cc(Cl)ccc23)nc1-c1ccccc1,Cryptococcus neoformans,27JF,-,-,MIC99,-,16 µg/mL
CCc1cn([C@@H]2O[C@H](CO)[C@@H](O)[C@@H]2O)c(=O)[nH]c1=O,Varicella zoster virus,Asahikawa,HELF,plaque count,inhibition,100 µg/mL,38%
Nc1nc(=O)ccn1COCCO,Vesicular stomatitis virus,-,PRK,cytopathic effect,EC50,-,>400 µg/mL
Oc1ccc(O)c(C=Nc2ccccc2O)c1,Cryptococcus neoformans,5396,-,-,MIC99,-,11.3 µg/mL

The last 5 rows once more:

structure	agent	strain or isolate	cells	read by	measure	dose	value
Cc1cn([C@@H]2O[C@H](CO)[C@@H](O)[C@@H]2F)c(=O)nc1N	Varicella zoster virus	KANNO	HELF	plaque count	inhibition	0.001 µg/mL	0%
CCOC(=O)c1c(C)nc(OCCCNc2ccnc3cc(Cl)ccc23)nc1-c1ccccc1	Cryptococcus neoformans	27JF	-	-	MIC99	-	16 µg/mL
CCc1cn([C@@H]2O[C@H](CO)[C@@H](O)[C@@H]2O)c(=O)[nH]c1=O	Varicella zoster virus	Asahikawa	HELF	plaque count	inhibition	100 µg/mL	38%
Nc1nc(=O)ccn1COCCO	Vesicular stomatitis virus	-	PRK	cytopathic effect	EC50	-	>400 µg/mL
Oc1ccc(O)c(C=Nc2ccccc2O)c1	Cryptococcus neoformans	5396	-	-	MIC99	-	11.3 µg/mL

Neighbouring rows are from separate reports. Zones are inhibition diameters on agar. a–b is a range or a potency band. MIC50, MIC90 and the like: level of inhibition, or share of isolates inhibited. Percent inhibition refers to the dose given; in toxicity tests it is the harm to the cells. An empty or dashed field is not shown.